Experimental data reported in PubChem BioAssay AID504941 (Broad Institute, 2011).
The entries are a selection whose mix differs from that of the whole data set. Entries with a potency or affinity are not part of this list. The source made the active and inactive calls. No rule for the calls is given here.

Test: E. coli Tat export inhibitors, dose response, cherry-pick, set 2, plate reader (AID 504941)
Conditions: E. coli Tat transport reporter; at 38 µM (top of the series)

Structure (SMILES)	activity change, negative = inhibition
O=C(NCC1(N2CCCCC2)CCCCC1)c1ccc(F)cc1	inactive: 26.8%
